Measured values from several laboratories, pooled; numbers as filed in NIAID ChemDB.

All rows: growth or infection tests; species: Herpes simplex virus 1; method: virus yield; endpoint: inhibition

Blank or dashed fields: not listed here. Percent inhibition refers to the dose given; in toxicity tests it is the harm to the cells. Conditions beyond the fields shown may differ between rows.

smiles | cells | strain or isolate | tested at | result
O=c1[nH]c(=O)n([C@@H]2O[C@H](CO)[C@@H](O)[C@@H]2F)cc1I | VERO | F | 0.1 µM | 86%
Nc1ncnc2c1ncn2[C@@H]1O[C@H](CO)[C@@H](O)[C@@H]1O | HL | F | 5 µg/mL | 96%
Cc1ccc2c(c1)c1nn(-c3ccc(Cl)cc3)c(=O)c-1cn2C1O[C@H](CO)[C@@H](O)[C@H]1O | VERO |  | 100 µM | 35%
Clc1c2cnc3c(cnn3-c3ccccc3)c2nc2cccc(Br)c12 |  |  | 50 µM | 30%
Cc1ccc2c(c1)C(=O)C(=O)N2[C@@H]1O[C@H](COCc2ccccc2)[C@@H](OCc2ccccc2)[C@H]1OCc1ccccc1 | VERO |  | 50 µM | 46%
O=[N+]([O-])c1cccc2nc3c(cnc4c3cnn4-c3ccccc3)c(Cl)c12 |  |  | 50 µM | 80%
Nc1nc(=O)n([C@@H]2O[C@H](CO)[C@@H](O)[C@@H]2F)cc1I | VERO | F | 1 µM | 99.95%
COc1cccc2c1C(=O)c1c(O)c3c(c(O)c1C2=O)C[C@@](O)(C(=O)CO)C[C@@H]3O[C@H]1C[C@H](N)[C@H](O)[C@H](C)O1 | VERO |  | 1 µM | 11%
Nc1ccn([C@H]2O[C@@H](CO)[C@H](O)[C@H]2F)c(=O)n1 | VERO | F | 10 µM | 97.8%
Nc1nc2c(ncn2COCCO)c(=O)[nH]1 | VERO | 7401H | 0.6 µg/mL | 99.7%
Clc1c2ccccc2nc2c1cnc1c2cnn1-c1ccccc1 |  |  | 50 µM | 20.6%
O=c1c2cn(C3O[C@H](CO)[C@@H](O)[C@H]3O)c3cc(F)ccc3c-2nn1-c1ccc(F)cc1 | VERO |  | 100 µM | 35%
O=C1Nc2cc(Br)cc(Br)c2C1=O | VERO |  | 50 µM | 46%
Cc1ccc2ncc3c(=O)n(-c4ccc(F)cc4)[nH]c3c2c1 | VERO |  | 100 µM | 31%
Cc1cn([C@@H]2O[C@H](CO)[C@@H](O)[C@@H]2F)c(=O)[nH]c1=O | VERO | F | 0.5 µM | 68%
Cc1ccc2ncc3c(=O)n(-c4ccc(Br)cc4)[nH]c3c2c1 | VERO |  | 100 µM | 27%
O=C1C(=O)N([C@@H]2O[C@H](COCc3ccccc3)[C@@H](OCc3ccccc3)[C@H]2OCc2ccccc2)c2cc(Br)cc(Br)c21 | VERO |  | 50 µM | 66%
Cc1ccnc2nc3c(cnc4c3cnn4-c3ccccc3)c(Cl)c12 |  |  | 50 µM | 65%
O=C1Nc2ccc(I)cc2C1=O | VERO |  | 50 µM | 28%
O=c1ccn([C@@H]2O[C@H](CO)[C@@H](O)[C@@H]2F)c(=O)[nH]1 | VERO | F | 1 µM | 90.8%

Again, the opening 3 rows:

| smiles | cells | strain or isolate | tested at | result |
|---|---|---|---|---|
| O=c1[nH]c(=O)n([C@@H]2O[C@H](CO)[C@@H](O)[C@@H]2F)cc1I | VERO | F | 0.1 µM | 86% |
| Nc1ncnc2c1ncn2[C@@H]1O[C@H](CO)[C@@H](O)[C@@H]1O | HL | F | 5 µg/mL | 96% |
| Cc1ccc2c(c1)c1nn(-c3ccc(Cl)cc3)c(=O)c-1cn2C1O[C@H](CO)[C@@H](O)[C@H]1O | VERO |  | 100 µM | 35% |